Results deposited as PubChem BioAssay AID624099 (ICCB-Longwood, 2012).

Purpose: 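Knock-downs relieving repression by E2 of an HPV18 LCR luciferase reporter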 (primary screen)
Cell system: human C33A cervical carcinoma cells (HPV-negative) stably expressing BPV1 E2 and an HPV18 LCR luciferase reporter
Reagents: siRNA pool against human genes, 40 nM
Duration: 72 h
Measurement: 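HPV18 LCR reporter light per well, converted to plate-wise z-scores that exclude control wells, and averaged over triplicate plates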
Scale: mean z-score and z-score: higher = stronger reporter signal, weaker E2 silencing
Hit rule: 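Hit if mean z-score reaches 2 and two or more of three replicate z-scores also reach 2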
The deposit covers about 21,000 reagents; shown is a random part of them. 497 of all reagents (2.4%) count as active. 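Higher z means weaker E2 silencing; only reporter increases were scored, and knock-downs that hurt cell survival may mask genuine repressor factors.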 The numbers tell different reagents against one gene apart.

{"gene": "GOLPH3L (GeneID 55204)", "pool no.": 1, "mean z-score": -0.52, "z-score, replicate A": 0.51, "z-score, replicate B": -0.26, "z-score, replicate C": -1.82, "activity call": "inactive"}
{"gene": "PITX1 (GeneID 5307)", "pool no.": 1, "mean z-score": 0.3, "z-score, replicate A": 0.59, "z-score, replicate B": 0.18, "z-score, replicate C": 0.13, "activity call": "inactive"}
{"gene": "MAP2K6 (GeneID 5608)", "pool no.": 1, "mean z-score": -1.08, "z-score, replicate A": -1.29, "z-score, replicate B": -1.03, "z-score, replicate C": -0.93, "activity call": "inactive"}
{"gene": "MRFAP1L1 (GeneID 114932)", "pool no.": 1, "mean z-score": 0.42, "z-score, replicate A": 0.35, "z-score, replicate B": 0.67, "z-score, replicate C": 0.24, "activity call": "inactive"}
{"gene": "EN1 (GeneID 2019)", "pool no.": 1, "mean z-score": 1.05, "z-score, replicate A": 1.44, "z-score, replicate B": 0.98, "z-score, replicate C": 0.72, "activity call": "inactive"}
{"gene": "ZNF137P (GeneID 7696)", "pool no.": 1, "mean z-score": 1.46, "z-score, replicate A": 1.39, "z-score, replicate B": 1.56, "z-score, replicate C": 1.44, "activity call": "inactive"}
{"gene": "LINC01376 (GeneID 400945)", "pool no.": 1, "mean z-score": 1.45, "z-score, replicate A": 1.64, "z-score, replicate B": 1.42, "z-score, replicate C": 1.28, "activity call": "inactive"}
{"gene": "NKX2-3 (GeneID 159296)", "pool no.": 1, "mean z-score": 0.55, "z-score, replicate A": 0.69, "z-score, replicate B": 0.33, "z-score, replicate C": 0.62, "activity call": "inactive"}
{"gene": "DENND1B (GeneID 163486)", "pool no.": 1, "mean z-score": -0.09, "z-score, replicate A": -0.29, "z-score, replicate B": -0.12, "z-score, replicate C": 0.14, "activity call": "inactive"}
{"gene": "DENND1B (GeneID 163486)", "pool no.": 2, "mean z-score": -1.63, "z-score, replicate A": -1.63, "z-score, replicate B": -1.5, "z-score, replicate C": -1.75, "activity call": "inactive"}
{"gene": "LOC390508 (retired record) (GeneID 390508)", "pool no.": 1, "mean z-score": -0.07, "z-score, replicate A": -0.26, "z-score, replicate B": -0.23, "z-score, replicate C": 0.28, "activity call": "inactive"}
{"gene": "SAMD12 (GeneID 401474)", "pool no.": 1, "mean z-score": -0.63, "z-score, replicate A": -0.19, "z-score, replicate B": -0.98, "z-score, replicate C": -0.72, "activity call": "inactive"}
{"gene": "ZMYM2 (GeneID 7750)", "pool no.": 1, "mean z-score": -1.08, "z-score, replicate A": -1.26, "z-score, replicate B": -1, "z-score, replicate C": -0.98, "activity call": "inactive"}
{"gene": "HOXB2 (GeneID 3212)", "pool no.": 1, "mean z-score": 0.48, "z-score, replicate A": 0.26, "z-score, replicate B": 0.43, "z-score, replicate C": 0.74, "activity call": "inactive"}
{"gene": "LOC401386 (retired record) (GeneID 401386)", "pool no.": 1, "mean z-score": -0.67, "z-score, replicate A": -0.4, "z-score, replicate C": -0.95, "activity call": "inactive"}
{"gene": "PPP1R13B-DT (GeneID 145216)", "pool no.": 1, "mean z-score": 0.48, "z-score, replicate A": 0.56, "z-score, replicate B": 0.05, "z-score, replicate C": 0.83, "activity call": "inactive"}

Continued, starting with the last 2 of the part before.
{"gene": "LOC401386 (retired record) (GeneID 401386)", "pool no.": 1, "mean z-score": -0.67, "z-score, replicate A": -0.4, "z-score, replicate C": -0.95, "activity call": "inactive"}
{"gene": "PPP1R13B-DT (GeneID 145216)", "pool no.": 1, "mean z-score": 0.48, "z-score, replicate A": 0.56, "z-score, replicate B": 0.05, "z-score, replicate C": 0.83, "activity call": "inactive"}
{"gene": "RPAP1 (GeneID 26015)", "pool no.": 1, "mean z-score": -1.83, "z-score, replicate A": -1.53, "z-score, replicate B": -1.99, "z-score, replicate C": -1.96, "activity call": "inactive"}
{"gene": "EIPR1 (GeneID 7260)", "pool no.": 1, "mean z-score": -1.23, "z-score, replicate A": -0.47, "z-score, replicate B": -1.62, "z-score, replicate C": -1.61, "activity call": "inactive"}
{"gene": "CIDEA (GeneID 1149)", "pool no.": 1, "mean z-score": -0.04, "z-score, replicate A": -0.09, "z-score, replicate B": 0.05, "z-score, replicate C": -0.07, "activity call": "inactive"}
{"gene": "GOLGA7 (GeneID 51125)", "pool no.": 1, "mean z-score": -0.87, "z-score, replicate A": -0.63, "z-score, replicate B": -1.07, "z-score, replicate C": -0.92, "activity call": "inactive"}
{"gene": "ZNF440 (GeneID 126070)", "pool no.": 1, "mean z-score": 0.86, "z-score, replicate A": 1.09, "z-score, replicate B": 0.74, "z-score, replicate C": 0.73, "activity call": "inactive"}
{"gene": "GPR42 (GeneID 2866)", "pool no.": 1, "mean z-score": 1.92, "z-score, replicate A": 1.91, "z-score, replicate B": 1.74, "z-score, replicate C": 2.1, "activity call": "inactive"}
{"gene": "LOC402695 (retired record) (GeneID 402695)", "pool no.": 1, "mean z-score": -0.54, "z-score, replicate A": -0.32, "z-score, replicate B": -0.56, "z-score, replicate C": -0.74, "activity call": "inactive"}
{"gene": "MYO1A (GeneID 4640)", "pool no.": 1, "mean z-score": 0.6, "z-score, replicate A": 0.75, "z-score, replicate B": 0.48, "z-score, replicate C": 0.56, "activity call": "inactive"}
{"gene": "XKR9 (GeneID 389668)", "pool no.": 1, "mean z-score": 0.6, "z-score, replicate A": 0.7, "z-score, replicate B": 0.44, "z-score, replicate C": 0.67, "activity call": "inactive"}
{"gene": "PARD3 (GeneID 56288)", "pool no.": 1, "mean z-score": -1.07, "z-score, replicate A": -0.8, "z-score, replicate B": -1.17, "z-score, replicate C": -1.25, "activity call": "inactive"}
{"gene": "CHST5 (GeneID 23563)", "pool no.": 1, "mean z-score": 0.84, "z-score, replicate A": 1.03, "z-score, replicate B": 0.71, "z-score, replicate C": 0.79, "activity call": "inactive"}
